A mixed list of measured activities; the numbers were collected in NIAID ChemDB.

Common to all: growth or infection tests; species: Aspergillus flavus; read by: agar diffusion; endpoint: zone

Zone: diameter of growth inhibition.

compound,tested at,strain,result
O=C(NN1C(=O)CSC1C1C(c2ccccc2)=Nc2ccccc21)N1c2ccccc2C=Cc2ccccc21,750 µg/mL,MTCC-1973,4 mm
O=C(CNC(=O)c1ccncc1)NN1CSCC1=O,50 µg/mL,,13 mm
Fc1ccc(NCc2cc3ccccc3nc2Cl)cc1Cl,200 µg/mL,MTCC 277,19.66 mm
O=C(CNC(=O)c1ccncc1)NN1C(=O)/C(=C/c2ccccc2Br)SC1c1ccccc1Br,100 µg/mL,,15.6 mm
Clc1ccc(NCc2cc3ccccc3nc2Cl)cc1,200 µg/mL,MTCC 277,16 mm
O=C(CNC(=O)c1ccncc1)NN1C(=O)/C(=C/c2ccccc2[N+](=O)[O-])SC1c1ccccc1[N+](=O)[O-],50 µg/mL,,21 mm
Cc1ccc2c(c1)C1(C(=O)N2CCCCCCN2C(=O)C3(SCC(=O)N3c3c(C)n(C)n(-c4ccccc4)c3=O)c3ccccc32)c2c(C)nn(-c3ccccc3)c2Oc2c1c(C)nn2-c1ccccc1,100 µg/mL,MTCC 277,15 mm
Cc1cccc(NCc2cc3ccccc3nc2Cl)c1,200 µg/mL,MTCC 277,10.1 mm
CN(C)c1ccc(C2SCC(=O)N2NC(=O)CNC(=O)c2ccncc2)cc1,50 µg/mL,,11 mm
Cc1ccc(N=c2cc(N)nc3sc(S(N)(=O)=O)nn23)cc1,5000 µg/mL,,10 mm
COc1c(N2CC3CCCNC3C2)c(F)cc2c(=O)c(C(=O)[O-])cn(C3CC3)c12.[Cl][Zn+].c1c[nH]cn1,100 µM,,0 mm
CN(Cc1cc2ccccc2nc1Cl)c1ccccc1,200 µg/mL,MTCC 277,14.16 mm
Cn1c(=O)c(-c2[nH][nH]c(=O)c2N=Nc2cccc(Cl)c2)c(O)c2ccccc21,1 mg/mL,ATCC 28542,15 mm
Cc1ccc2c(c1)C1(C(=O)N2CCCCCCN2C(=O)C3(SCC(=O)N3c3c(C)n(C)n(-c4ccccc4)c3=O)c3cc(C)ccc32)c2c(C)nn(-c3ccccc3)c2Oc2c1c(C)nn2-c1ccccc1,100 µg/mL,MTCC 277,14 mm
Cn1c(=O)c(-c2[nH][nH]c(=O)c2N=Nc2ccccc2)c(O)c2ccccc21,1 mg/mL,ATCC 28542,11 mm
Cc1nn(-c2ccccc2)c2c1C1(C(=O)N(CCCCCCN3C(=O)C4(SCC(=O)N4c4c(C)n(C)n(-c5ccccc5)c4=O)c4cc(F)ccc43)c3ccccc31)c1c(C)nn(-c3ccccc3)c1O2,100 µg/mL,MTCC 277,14 mm
COc1ccccc1/C=C1\SC(c2ccccc2OC)N(NC(=O)CNC(=O)c2ccncc2)C1=O,50 µg/mL,,10 mm
Cc1ccc2c(c1)C(C=NNC(=O)N1c3ccccc3C=Cc3ccccc31)C(c1ccccc1)=N2,500 µg/mL,MTCC-1973,2 mm
Cc1ccc2c(c1)C1(SCC(=O)N1c1c(C)n(C)n(-c3ccccc3)c1=O)C(=O)N2CCCCCCN1C(=O)C2(c3ccccc31)c1c(C)nn(-c3ccccc3)c1Oc1c2c(C)nn1-c1ccccc1,100 µg/mL,MTCC 277,12 mm
COc1c(N2CC3CCCNC3C2)c(F)cc2c(=O)c(C(=O)[O-])cn(C3CC3)c12.[Cl][Mn+].c1c[nH]cn1,100 µM,,0 mm
O=C(NN1C(=O)CSC1C1C(c2ccccc2)=Nc2ccc(Cl)cc21)N1c2ccccc2C=Cc2ccccc21,1000 µg/mL,MTCC-1973,13 mm
Cc1ccc(N=Nc2c(-c3c(O)c4ccccc4n(C)c3=O)[nH][nH]c2=O)cc1,1 mg/mL,ATCC 28542,8 mm
CN(Cc1cc2ccccc2nc1Cl)c1cccc(Cl)c1,200 µg/mL,MTCC 277,12.08 mm
CN1C(=O)/C(=c2/[nH][nH]c(=O)/c2=C\c2ccc3c(c2)OCO3)C(=O)c2ccccc21,1 mg/mL,ATCC 28542,12 mm
Cc1ccc2c(c1)sc1nc(=O)cc(C(=O)NN)n12,5000 µg/mL,,18 mm
Clc1ccc(COC(Cn2ccnc2)c2ccc(Cl)cc2Cl)c(Cl)c1,100 µg/mL,,17 mm
Cc1ccc(N=Cc2c(-c3c(O)c4ccccc4n(C)c3=O)[nH][nH]c2=O)cc1,1 mg/mL,ATCC 28542,20 mm

The last 3 rows once more:

compound | tested at | strain | result
Cc1ccc2c(c1)sc1nc(=O)cc(C(=O)NN)n12 | 5000 µg/mL |  | 18 mm
Clc1ccc(COC(Cn2ccnc2)c2ccc(Cl)cc2Cl)c(Cl)c1 | 100 µg/mL |  | 17 mm
Cc1ccc(N=Cc2c(-c3c(O)c4ccccc4n(C)c3=O)[nH][nH]c2=O)cc1 | 1 mg/mL | ATCC 28542 | 20 mm

Blank or dashed fields: not listed here. Neighbouring rows are from separate reports.